Pooled drug test results. Numbers come from NIAID ChemDB, via PubChem.

Common to all: tests in culture; agent: HIV-1; cell line: MT-2; read-out: EC50

ECn is the concentration giving n% inhibition of infection, replication or growth. Lines come from different laboratories, so protocols vary.

{"compound": "Nc1ccn([C@H]2CC[C@@H](CO)O2)c(=O)n1", "strain": "RF", "value": "<0.1 µM"}
{"compound": "OC(CNCC1CCCO1)Cn1c2ccc(Br)cc2c2cc(Br)ccc21", "strain": "NL4-3", "method": "luciferase / luminescence", "value": "3.2 µM"}
{"compound": "CCN(c1nc(F)ccc1NC(C)(C)C)C1CCN(C(=O)c2cc3cc(NC(=O)N4CCN(C)CC4)ccc3[nH]2)CC1", "strain": "IIIB", "mutations": "8374-P36 GS-8374-resistant", "method": "ATP", "value": "0.0135 µM"}
{"compound": "Cc1cn([C@H]2C[C@H](N=[N+]=[N-])[C@@H](CO)O2)c(=O)[nH]c1=O", "strain": "G910-6", "method": "MTT / p24", "value": "1.7 µg/mL"}
{"compound": "O=C1N(Cc2ccc(Br)cc2)[C@H](Cc2ccccc2)[C@H](O)[C@@H](O)[C@@H](Cc2ccccc2)N1Cc1ccc(Br)cc1", "strain": "RF", "method": "hybridisation", "value": "<8.1 µM"}
{"compound": "CCc1c(C(=O)c2cc(C)cc(C)c2)n(CC2CC=CC2)c(=O)[nH]c1=O", "strain": "IIIB", "method": "cytopathic effect / XTT", "value": "0.001 µM"}
{"compound": "CC(C)[C@H](NC(=O)OCc1ccccc1)C(=O)N[C@@H](Cc1ccccc1)[C@@H](O)[C@H](O)[C@H](Cc1ccccc1)NC(=O)[C@@H](NC(=O)OCc1ccccc1)C(C)C", "strain": "RF", "method": "plaque count / virus yield", "value": "<0.09 µg/mL"}
{"compound": "COc1ccccc1CN1C(=O)N(Cc2ccccc2OC)[C@H](Cc2ccccc2)[C@H](O)[C@@H](O)[C@H]1Cc1ccccc1", "strain": "RF", "method": "hybridisation", "value": "<22.9 µM"}
{"compound": "Nc1ccn([C@H]2CC[C@@H](CO)O2)c(=O)n1", "strain": "HXB2D", "method": "XTT", "value": "0.6 µM"}
{"compound": "Fc1nc(N2CCNCC2)c(F)c(Sc2ccc(Cl)cc2)c1F", "strain": "NL4-3", "method": "luciferase / luminescence", "value": "2 µM"}
{"compound": "CC(C)OC(=O)CNP(=O)(CO[C@@H]1C=C(F)[C@H](n2cnc3c(N)ncnc32)O1)NCC(=O)OC(C)C", "strain": "IIIB", "method": "luminescence", "value": ">2 µM"}
{"compound": "Nc1nc(Cl)nc2c1ncn2[C@H]1CC[C@H](CO)S1", "strain": "IIIB", "method": "cytopathic effect / MTT", "value": ">100 µM"}
{"compound": "O=C1N(Cc2ccc(Cl)cc2)[C@H](Cc2ccccc2)[C@H](O)[C@@H](O)[C@@H](Cc2ccccc2)N1Cc1ccc(Cl)cc1", "strain": "RF", "method": "hybridisation", "value": "<4.5 µM"}
{"compound": "Nc1nc(Cl)nc2c1ncn2[C@H]1CC[C@H](CO)O1", "strain": "IIIB", "method": "cytopathic effect / MTT", "value": ">100 µM"}
{"compound": "CC(C)CN(C[C@@H](O)[C@H](Cc1ccccc1)NC(=O)O[C@H]1CCOC1)S(=O)(=O)c1ccc(N)cc1", "strain": "IIIB", "mutations": "K112M K113E V128I M200I H219P I401T R409K D437N L441P R41K", "method": "p24 / ELISA", "value": "0.0473 µM"}
{"compound": "CC(=O)c1cccc(CN2C(=O)N(Cc3cccc(C(C)=O)c3)[C@H](Cc3ccccc3)[C@H](O)[C@@H](O)[C@H]2Cc2ccccc2)c1", "strain": "RF", "value": "<0.039 µM"}
{"compound": "C=C(C)[C@@H]1CC[C@]2(NCCN3C[C@H]4C[C@H]3CS4(=O)=O)CC[C@]3(C)[C@H](CC[C@@H]4[C@@]5(C)CC=C(C6=CC7C(C6)C7C(=O)O)C(C)(C)[C@@H]5CC[C@]43C)[C@@H]12", "strain": "NL4-3", "method": "luciferase", "value": "<0.1 µM"}
{"compound": "COc1ccc(S(=O)(=O)N(CC(C)C)C[C@@H](O)[C@H](Cc2ccccc2)NC(=O)O[C@H]2CO[C@H]3O[C@@H]4OCC[C@@H]4[C@H]32)cc1", "strain": "LAI", "method": "MTT", "value": "0.0007 µM"}
{"compound": "CC[C@H](C)[C@H](NC(=O)Cc1ccccn1)C(=O)N[C@@H](Cc1ccccc1)[C@@H](O)[C@H](O)[C@H](Cc1ccccc1)NC(=O)[C@@H](NC(=O)Cc1ccccn1)[C@@H](C)CC", "strain": "RF", "method": "plaque count / virus yield", "value": "0.9 µg/mL"}
{"compound": "Cc1cn([C@H]2C[C@H](N=[N+]=[N-])[C@@H](CO)O2)c(=O)[nH]c1=O", "strain": "NL4-3 (1-D4 IN G140S)", "method": "cytopathic effect / neutral red", "value": "0.024 µM"}
{"compound": "Cc1cn([C@H]2C[C@H](N=[N+]=[N-])[C@@H](CO)O2)c(=O)[nH]c1=O", "strain": "IIIB", "method": "p24 / ELISA", "value": "0.00726 µM"}
{"compound": "Nc1nc(=O)n([C@@H]2CS[C@H](CO)O2)cc1F", "strain": "LAI Recombinant", "method": "cytopathic effect / XTT", "value": "0.6 µM"}
{"compound": "COc1cccc(CN2C(=O)N(Cc3cccc(OC)c3)[C@H](Cc3ccccc3)[C@H](O)[C@@H](O)[C@H]2Cc2ccccc2)c1", "strain": "RF", "method": "hybridisation", "value": "<1.3 µM"}
{"compound": "COc1c(C)c2c(c(O)c1C/C=C(\\C)CCC(=O)O)C(=O)OC2", "strain": "LAI", "method": "cytopathic effect / XTT", "value": ">1 µM"}
{"compound": "Cc1cn(C=C2C[C@H]2CO)c(=O)[nH]c1=O", "strain": "LAI", "method": "cytopathic effect / MTT", "value": ">100 µM"}
{"compound": "O=C(O)P(=O)(O)O", "strain": "R82150 (RT-L100I)", "mutations": "RT-L100I", "method": "cytopathic effect", "value": "22.7 µM"}
{"compound": "Nc1ncnc2c1ncn2CCOCP(=O)(O)O", "strain": "IIIB", "method": "XTT", "value": "10 µM"}
{"compound": "O=C(C(=O)N1CCC(=C2c3ccccc3CCc3ccccc32)CC1)c1c[nH]c2c(Br)ncc(F)c12", "strain": "LAI", "method": "luciferase / reporter gene / single cycle", "value": ">0.5 µM"}
{"compound": "Nc1nc2c(ncn2[C@H]2CO[C@@H](CO)O2)c(=O)[nH]1", "mutations": "RT-F116Y Q151M T215Y", "method": "cytopathic effect / XTT", "value": "20 µM"}
{"compound": "COC(=O)c1cccc(CN2C(=O)N(Cc3cccc(-c4ccn[nH]4)c3)[C@H](Cc3ccccc3)[C@H](O)[C@@H](O)[C@H]2Cc2ccccc2)c1", "strain": "RF", "value": "<0.032 µM"}
{"compound": "Cn1c2ccccc2c2c1cc(C#N)c(=O)n2-c1ccc([N+](=O)[O-])cc1", "strain": "HXB2", "value": "54.5 µM"}
{"compound": "CC(C)CN(C[C@@H](O)[C@H](Cc1ccccc1)NC(=O)O[C@H]1CCOC1)S(=O)(=O)c1ccc(N)cc1", "strain": "GAG-L75 H219Q V390 APV-resistant", "mutations": "Gag H219Q R409K L449F E468K PR L10F V32I M46I I54M A71V I84V", "method": "cytopathic effect / MTT", "value": ">2.5 µM"}
{"compound": "Cc1ccc(S(=O)(=O)N(CC(C)C)C[C@@H](O)[C@H](Cc2ccccc2)NC(=O)O[C@H]2CO[C@H]3OCC[C@H]32)cc1", "strain": "IIIB", "mutations": "K112M K113E V128I M200I H219P I401T R409K D437N L441P", "method": "p24 / ELISA", "value": "0.008 µM"}
{"compound": "CCCc1c([Se]c2ccccc2)n(COCCO)c(=O)[nH]c1=O", "strain": "Cat #3 strain", "method": "p24", "value": "4.1 µM"}
{"compound": "COC(=O)[C@H](C)NP(=O)(OC[C@H]1C/C1=C\\n1cnc2c(N)nc(N)nc21)Oc1ccccc1", "strain": "LAI", "method": "cytopathic effect / MTT", "value": "5.3 µM"}
{"compound": "C=C(C)[C@@H]1CC[C@]2(NCCN3C[C@@H]4C[C@@H]3CS4(=O)=O)CC[C@]3(C)[C@H](CC[C@@H]4[C@@]5(C)CC=C(C6=CC[C@H](OC(=O)CC(C)(C)C(=O)O)CC6)C(C)(C)[C@@H]5CC[C@]43C)[C@@H]12", "strain": "NL4-3", "method": "luciferase", "value": "<0.1 µM"}
{"compound": "O=C1N(Cc2cccc(-c3ccn[nH]3)c2)[C@H](Cc2ccccc2)[C@H](O)[C@@H](O)[C@@H](Cc2ccccc2)N1Cc1cccc(-c2ccn[nH]2)c1", "strain": "RF", "value": "<0.02 µM"}
{"compound": "CC(C)Nc1cccnc1N1CCN(C(=O)c2cc3ccccc3[nH]2)CC1", "strain": "LAV", "value": "0.07 µM"}
{"compound": "COC(=O)N[C@H](C(=O)N[C@@H](Cc1ccccc1)[C@@H](O)CN(Cc1ccc(-c2ccccn2)cc1)NC(=O)[C@@H](NC(=O)OC)C(C)(C)C)C(C)(C)C", "strain": "LAI", "method": "MTT", "value": "0.0048 µM"}
{"compound": "Nc1nc(N)c2ncn([C@H]3CO[C@@H](CO)O3)c2n1", "strain": "IIIB", "method": "RT activity", "value": "0.54 µM"}
{"compound": "Cc1cn([C@H]2C[C@H](N=[N+]=[N-])[C@@H](CO)O2)c(=O)[nH]c1=O", "strain": "RF", "value": "0.022 µM"}
{"compound": "Nc1c(S(=O)(=O)c2ccc(Cl)cc2)cc2c(=O)n3ccccc3nc2[n+]1C1CCCCC1", "strain": "NL4-3", "method": "luciferase / luminescence", "value": "10.2 µM"}
{"compound": "Nc1nc2c(ncn2[C@H]2CC[C@@H](CO)O2)c(=O)[nH]1", "strain": "IIIB", "method": "cytopathic effect / MTT", "value": "10 µM"}
{"compound": "Cc1cn([C@H]2C=C[C@@H](CO)O2)c(=O)[nH]c1=O", "strain": "HXB2D", "method": "XTT", "value": "8 µM"}
{"compound": "O=c1[nH]cnc2c1ncn2[C@H]1CC[C@@H](CO)O1", "strain": "R82150 (RT-L100I)", "mutations": "RT-L100I", "method": "cytopathic effect", "value": "2.5 µM"}
{"compound": "O=C1N(Cc2ccccc2)[C@H](Cc2ccccc2)[C@H](O)[C@@H](O)[C@@H](Cc2ccccc2)N1Cc1ccccc1", "strain": "RF", "method": "hybridisation", "value": "<0.83 µM"}
{"compound": "Fc1cccc(F)c1C1SCc2nc3ccccc3n21", "strain": "RF", "method": "cytopathic effect / XTT", "value": "1.32 µM"}
{"compound": "Nc1nc(Cl)nc2c1ncn2[C@@H]1CC[C@H](CO)S1", "strain": "IIIB", "method": "cytopathic effect / MTT", "value": ">100 µM"}
{"compound": "NC(N)=NCCC[C@H](N)C(=O)NC[C@@H]1OC(O[C@H]2[C@@H](O)[C@H](O[C@@H]3[C@@H](O)[C@H](NC(=O)[C@@H](N)CCCN=C(N)N)C[C@H](NC(=O)[C@@H](N)CCCN=C(N)N)[C@H]3O[C@H]3O[C@H](CNC(=O)[C@@H](N)CCCN=C(N)N)[C@@H](O)[C@H](O)[C@H]3NC(=O)[C@@H](N)CCCN=C(N)N)O[C@@H]2CO)[C@H](NC(=O)[C@@H](N)CCCN=C(N)N)[C@@H](O)[C@@H]1O", "strain": "CLADE C", "method": "syncytia", "value": "0.5 µM"}
{"compound": "CC(C)[C@H](NC(=O)OCc1ccccc1)C(=O)N[C@@H](Cc1ccc(O)cc1)[C@@H](O)[C@H](O)[C@H](Cc1ccc(O)cc1)NC(=O)[C@@H](NC(=O)OCc1ccccc1)C(C)C", "strain": "RF", "method": "plaque count / virus yield", "value": "<0.4 µg/mL"}
{"compound": "CCOC(=O)[C@@H](OC(C)(C)C)c1c(C)nc(C)c(-c2ccc(OC3COCC3c3ccc(F)cc3)cc2)c1N1CCC(C)(C)CC1", "strain": "NL4-3", "method": "luminescence", "value": "≤0.1 µM"}
{"compound": "Nc1ccn([C@H]2CC[C@@H](CO)O2)c(=O)n1", "strain": "IIIB", "method": "cytopathic effect", "value": "0.14 µM"}
{"compound": "COc1c(O)ccc(C(=O)N[C@@H](CSc2ccccc2)[C@H](O)CN2C[C@H]3CCCC[C@H]3C[C@H]2C(=O)NC(C)(C)C)c1C", "strain": "IIIB", "method": "cytopathic effect / MTT", "value": "0.6533 µM"}
{"compound": "Nc1nc(N)c2ncn([C@H]3CC[C@H](CO)O3)c2n1", "strain": "IIIB", "method": "cytopathic effect / MTT", "value": ">100 µM"}
{"compound": "Cc1cn([C@H]2C[C@H](N=[N+]=[N-])[C@@H](CO)O2)c(=O)[nH]c1=O", "strain": "LAI", "method": "cytopathic effect / MTT", "value": "0.1 µM"}
{"compound": "O=c1[nH]cnc2c1ncn2[C@H]1CC[C@@H](CO)O1", "strain": "LAI", "method": "p24", "value": "2 µM"}
{"compound": "Nc1nc2ncn([C@@H]3CC[C@H](CO)O3)c2c(=O)[nH]1", "strain": "IIIB", "method": "cytopathic effect / MTT", "value": ">100 µM"}